Measurements from PubChem BioAssay AID1626 (SRMLSC, 2009).
The list shows a part of the results. Active and inactive are the calls of the source. No stated cut-off is given here; in the data, inconclusive means inhibition above about 80% without an active follow-up result; inactive means below that; test concentration not stated here.

experiment: M. tuberculosis H37Rv growth inhibitors, H37Rv strain (AID 1626); settings: active compounds read high, concentration not given here;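 further: bacteria incubated seven days before Alamar blue readout; 0% = bacteria only wells and 100% = bacteria with antibiotic wells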

| Structure (SMILES) | inhibition |
| --- | --- |
| C[C@@H]1C=CCP(=O)(Oc2ccccc2)O1 (stereo partly specified) | inactive: -0.38% |
| C[C@H]1OP(=O)(Oc2ccccc2)C[C@@H]2O[C@@H]21 (stereo partly specified) | inactive: -14.4% |
| CC(=O)Nc1ccc(Oc2c([N+](=O)[O-])cc([N+](=O)[O-])cc2[N+](=O)[O-])cc1 | inactive: 3.4% |
| CC(=O)Nc1ccc([As](=O)(O)O)c(O)c1 | inactive: 2.74% |
| CCOc1ccc(C2=NCC(CBr)S2)cc1 (stereo unspecified) | inactive: -2.28% |
| O=P1(Nc2nc3ccc(Cl)cc3s2)COc2ccccc2O1 (stereo unspecified) | inactive: 1.24% |
| CC(C)(C)C(=O)NC(Sc1ccccc1)C(Cl)(Cl)Cl (stereo unspecified) | inactive: 5.12% |
| CCC(=O)N1C2C3N(C(=O)CC)C1C1N(C(=O)CC)C(C(N1C(=O)CC)N3C(=O)CC)N2C(=O)CC | inactive: -4.83% |
| CC(=O)NC(SC(=S)N(CC(C)C)CC(C)C)C(Cl)(Cl)Cl (stereo unspecified) | inactive: 31.4% |
| Cc1ccc(OP(=O)(Nc2ccccn2)Oc2ccc(C)cc2)cc1 | inactive: 2.02% |
| COC(=O)c1cc2c(s1)N=C(c1ccccc1)N(C)P2(=O)N1CCOCC1 (stereo unspecified) | inactive: 1.1% |
| CN(C)C(=O)Oc1noc2ccccc12 | inactive: -0.42% |
| Cc1ccccc1OP(=O)(Nc1ccccn1)Oc1ccccc1C | inactive: 4.79% |
| Cc1ccc(NP(=O)(Oc2cccc(C)c2)Oc2cccc(C)c2)nc1 | inactive: 0.9% |
| CCOC(=O)NC(Sc1ccccc1)C(Cl)(Cl)Cl (stereo unspecified) | inactive: -6.52% |
| c1ccc(-c2nn[nH]n2)c(-c2nn[nH]n2)c1 | inactive: -4.04% |
| CCNC(=S)/N=C(\N)N[N+](=O)[O-] | inactive: 7.36% |
| O=C(NC1CCS(=O)(=O)C1)NP(=S)(Oc1ccccc1)Oc1ccccc1 (stereo unspecified) | inactive: 2.42% |
| O=[As](O)(c1ccccc1)c1ccc(O)cc1 | inactive: -13.6% |
| CC(=O)NC(SC(=S)N(C)C)C(Cl)(Cl)Cl (stereo unspecified) | inactive: -14.9% |
| O=[N+]([O-])c1ncn(CCn2cnc([N+](=O)[O-])n2)n1 | inactive: -2.97% |
| O=C(OC1CN2CCC1CC2)c1cccc(Cl)c1 (stereo unspecified) | inactive: -4.66% |

| Structure (SMILES) | inhibition |
| --- | --- |
| Nc1ccc([As](=O)(O)c2ccc([N+](=O)[O-])cc2)cc1 | inactive: 15.4% |
| C(Cc1nn[nH]n1)Cc1nn[nH]n1 | inactive: -4.98% |
| O=P(Nc1ccccn1)(c1ccc(Br)cc1)c1ccc(Br)cc1 | inactive: 2.94% |
| C[C@H]1OP(=O)(Oc2ccccc2)[C@H](O)[C@H](O)[C@H]1N=[N+]=[N-] (stereo partly specified) | inactive: -9.87% |
| O=P(Nc1nc2ccccc2s1)(c1ccccc1)c1ccccc1 | inactive: 7.71% |
| CC(C)C(=O)NC(Sc1ccccc1)C(Cl)(Cl)Cl (stereo unspecified) | inactive: 5.29% |
| O=P(Nc1nccs1)(c1ccccc1)c1ccccc1 | inactive: -7.62% |
| c1nnnn1CCn1cnnn1 | inactive: -1.24% |
| CCN(/C(=N/P(=O)(N1CCOCC1)N1CCOCC1)N1CCOCC1)c1ccc(OC)cc1 | inactive: 0.33% |
| Nc1ccc([As](=O)(O)c2ccc(N)cc2)cc1 | inactive: 27.5% |
| CC1CCN(C(=O)Oc2c(Cl)cc(Cl)c3cccnc23)CC1 | inactive: 16.4% |
| CN(C)C(=O)OCCc1n(C)cc[n+]1C | inactive: -3.88% |
| CC(C)=N/N=C(\N)N[N+](=O)[O-] | inactive: -7.33% |
| COc1ccc(C2=NCC(CBr)S2)cc1 (stereo unspecified) | inactive: -8.33% |
| CCc1nc2c(n1)c1c(non1O)c1c2no[n+]1[O-] | inactive: -0.9% |
| O=[N+]([O-])c1cc([N+](=O)[O-])c(CCNc2ccccc2)c([N+](=O)[O-])c1 | inactive: 24.5% |
| Cc1ccc(NP(=O)(Oc2ccccc2)Oc2ccccc2)nc1 | inactive: 7.52% |
| O=[N+]([O-])c1cccc2n[nH]nc12 | inactive: -2.25% |
| CC(=O)N1C2C3N(C(C)=O)C1C1N(C(C)=O)C(C(N1C(C)=O)N3C(C)=O)N2C(C)=O | inactive: -5.56% |
| O=[N+]([O-])c1ncn(CCn2ncnc2[N+](=O)[O-])n1 | inactive: 1.34% |
| CC(C)(C)C(=O)NC(Sc1ccncn1)C(Cl)(Cl)Cl (stereo unspecified) | inactive: -0.24% |
| O=C(O)CNc1ccc([As](=O)(O)O)cc1 | inactive: -14.1% |

| Structure (SMILES) | inhibition |
| --- | --- |
| O=[N+]([O-])c1cccc(NC2=NCC(CBr)S2)c1 (stereo unspecified) | inactive: 8.6% |
| O=C(Nc1cc([As](=O)(O)O)ccc1O)c1ccccc1 | inactive: -12.4% |
| Nc1cccc2ccc([As](=O)(O)O)cc12 | inactive: -8.84% |
| CCN(N=Nc1nonc1N)c1nonc1N | inactive: 2.29% |
| O=P(Nc1nc2ccc(Cl)cc2s1)(c1ccccc1)c1ccccc1 | inactive: 60.3% |
| O=C(O)c1ccccc1[As](=O)(O)O | inactive: 12.8% |
| CC(=O)Nc1ccc([As](=O)(O)O)cc1 | inactive: -10.8% |
| Cc1ccc(NP(=O)(Oc2ccccc2F)Oc2ccccc2F)nc1 | inactive: 7.4% |
| CN(C(=O)Cc1ccc(Cl)c(Cl)c1)[C@H]1CCCC[C@@H]1N1CCCC1 | inactive: -8.38% |
| CCOP(=O)(Nc1ccccc1)OCC | inactive: 5.46% |
| Cc1cc(SC(NC(=O)c2ccc(F)cc2)C(Cl)(Cl)Cl)ncn1 (stereo unspecified) | inactive: 1.26% |
| Cc1c2non([O-])c-2c(C)[n+](=O)[n+]1[O-] | inactive: -8.52% |
| O=C(NC(Sc1ccncn1)C(Cl)(Cl)Cl)c1ccccc1 (stereo unspecified) | inactive: -1.03% |
| Oc1ccccc1CNc1ccccn1 | inactive: 18.1% |
| CC(C)CC(=O)NC(Sc1ccc(Cl)cc1)C(Cl)(Cl)Cl (stereo unspecified) | inactive: 1.94% |
| Cc1ccc(N/C(=N/P(=O)(N2CCOCC2)N2CCOCC2)N2CCOCC2)cc1 | inactive: 0.64% |
| NC(=O)c1cc([N+](=O)[O-])cc([N+](=O)[O-])c1N | inactive: -6.02% |
| Clc1ccc(Cl)c(NC2=NCC(CBr)S2)c1 (stereo unspecified) | inactive: -7.79% |
| CN1CCCC(OC(=O)C(c2ccccc2)c2ccccc2)C1 (stereo unspecified) | inactive: 4.69% |
| Cc1ccc(OP(=O)(Nc2nccs2)Oc2ccc(C)cc2)cc1 | inactive: 3.32% |
| COc1ccccc1OP(=O)(Nc1ccc(C)cn1)Oc1ccccc1OC | inactive: 3.81% |
| COc1ccc(N/C(=N/P(=O)(N2CCOCC2)N2CCOCC2)N2CCOCC2)cc1 | inactive: -1.75% |
